The values that follow are results of earlier work, collected in patent US4970199A, “Steroidal glycolipids as host resistance stimulators against viral infection” (priority 1989, dated 1990).

In the data set the test system is HIV. The following applies: recombinant IL-2; cited from earlier work.

“Interleukin-2: Protein made by white blood cells that mediates production of interferon”: the “preliminary results of therapy” value is “not encouraging”.
